Among the data in patent US20050153376A1 are Kd and percent competition values, retold here.

For test [1], the target named is MHC class II (HLA-DR1) on human LG-2 cells (human). Put plainly: Scatchard analysis, 125I-labelled toxin on LG-2 cells; high affinity site.
The target is the same in test [2].
Test [3] shares this target. Kind of test: Scatchard analysis, 125I-labelled toxin on LG-2 cells; low affinity site.

For the substance recombinant SPE-H superantigen (mature), the Kd in test [1] is 37 nM; in test [3], 2000 nM. In test [2], this substance came in with a percent competition of 50%.

Usually Kd stands for a measure of binding affinity in units of concentration.
